The entries are a selection whose mix differs from that of the whole data set. Activity calls are given as the source filed them.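 Rule for the calls: active = significant combined selectivity score with lowered wild-type GFP, culture density cut under 30%, mutant RFP and density less affected; inactive = any of these conditions unmet.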
Assay: reduced GFP signal of wild-type E. coli, primary screen, bacterial rRNA inhibitor project, GFP/RFP fluorescence, OD600, single point (AID 720706)
Conditions: E. coli WT GFP vs humanized-ribosome RFP mutants, 24 h, active compounds read low, DMSO median 0, no signal -100

With `O=c1[nH]c2ccccc2n1C1CCN(C(c2cccs2)c2nnnn2C2CCCCC2)CC1` (stereo not drawn) as the compound, how does the GFP signal change (wild-type ribosome) read?
The GFP signal change (wild-type ribosome) was inactive: -16.9%.

With `O=c1[nH]c2ccccc2n1C1CCN(C(c2ccnc3ccccc23)c2nnnn2C2CCCC2)CC1` (stereo not drawn) as the compound, how does the GFP signal change (wild-type ribosome) read?
The GFP signal change (wild-type ribosome) was inactive: -7.98%.

For `COc1ccc(C(=O)NCC2(N3CCOCC3)CCCCC2)cc1OC`, which GFP signal change (wild-type ribosome) is on record?
The GFP signal change (wild-type ribosome) was inactive: 14.7%.

With `COc1cc(C(=O)NCC2(N3CCOCC3)CCCCC2)cc(OC)c1C` as the compound, how does the GFP signal change (wild-type ribosome) read?
The GFP signal change (wild-type ribosome) was inactive: 3.81%.

For `CCCCn1nnnc1C(c1ccccc1)N1CCC(n2c(=O)[nH]c3ccccc32)CC1` (stereo not drawn), which GFP signal change (wild-type ribosome) is on record?
The GFP signal change (wild-type ribosome) was inactive: -6.62%.

Which GFP signal change (wild-type ribosome) does the source give for `O=C(NCC1(N2CCOCC2)CCCCC1)c1cc(Br)ccc1Cl` here?
The GFP signal change (wild-type ribosome) was inactive: -0.645%.

For `O=c1[nH]c2ccccc2n1C1CCN(C(c2cccs2)c2nnnn2C2CCCC2)CC1` (stereo not drawn), which GFP signal change (wild-type ribosome) is on record?
The GFP signal change (wild-type ribosome) was active: -19.1%.

For `CCCCn1nnnc1C(c1cccc(OC)c1OC)N1CCC(n2c(=O)[nH]c3ccccc32)CC1` (stereo not drawn), which GFP signal change (wild-type ribosome) is on record?
The GFP signal change (wild-type ribosome) was inactive: -8.14%.

For `COc1cccc(C(c2nnnn2C(C)(C)C)N2CCC(n3c(=O)[nH]c4ccccc43)CC2)c1OC` (stereo not drawn), which GFP signal change (wild-type ribosome) is on record?
Its GFP signal change (wild-type ribosome) is inactive: -25.1%.

For `CCOC(=O)N1CCC(Nc2ccc(C)cc2)CC1`, which GFP signal change (wild-type ribosome) is on record?
The GFP signal change (wild-type ribosome) was inactive: 3.6%.

With `O=C(O)C1(Nc2ccccc2)CCN(Cc2ccccc2)CC1` as the compound, how does the GFP signal change (wild-type ribosome) read?
Its GFP signal change (wild-type ribosome) is inactive: 6.87%.

For `NN(c1ccccc1)C1CCN(CCc2ccccc2)CC1`, which GFP signal change (wild-type ribosome) is on record?
The GFP signal change (wild-type ribosome) was inactive: -4.59%.

With `CC(C)(C)OC(=O)N1CCC(Nc2ccccc2)CC1` as the compound, how does the GFP signal change (wild-type ribosome) read?
Its GFP signal change (wild-type ribosome) is inactive: 5.56%.

For `CCCOc1ccc(C(=O)NCC2(N(C)C)CCCCC2)cc1`, which GFP signal change (wild-type ribosome) is on record?
Its GFP signal change (wild-type ribosome) is inactive: 13.4%.

With `O=c1[nH]c2ccccc2n1C1CCN(C(c2cc3ccccc3o2)c2nnnn2C2CCCC2)CC1` (stereo not drawn) as the compound, how does the GFP signal change (wild-type ribosome) read?
The GFP signal change (wild-type ribosome) was inactive: 4.42%.

With `CN1CCC(Nc2ccc(F)c(Cl)c2)CC1` as the compound, how does the GFP signal change (wild-type ribosome) read?
Its GFP signal change (wild-type ribosome) is inactive: 7.42%.

Which GFP signal change (wild-type ribosome) does the source give for `CN1CCC(Nc2ccc(Cl)cc2)CC1` here?
Its GFP signal change (wild-type ribosome) is inactive: 13.7%.

For `COc1cc(OC)cc(C(=O)NCC2(N3CCOCC3)CCCCC2)c1`, which GFP signal change (wild-type ribosome) is on record?
Its GFP signal change (wild-type ribosome) is inactive: 9.05%.

Which GFP signal change (wild-type ribosome) does the source give for `COc1cccc(C(c2nnnn2C2CCCC2)N2CCC(n3c(=O)[nH]c4ccccc43)CC2)c1OC` (stereo not drawn) here?
The GFP signal change (wild-type ribosome) was inactive: -13.5%.

Which GFP signal change (wild-type ribosome) does the source give for `COc1cccc(C(=O)N(c2cc(C)cc(C)c2)C2CCN(C(=O)OC(C)(C)C)CC2)c1` here?
Its GFP signal change (wild-type ribosome) is inactive: -1.56%.

For `Fc1ccccc1NC1CCN(Cc2ccccc2)CC1`, which GFP signal change (wild-type ribosome) is on record?
Its GFP signal change (wild-type ribosome) is inactive: 19.9%.

With `Cc1ccc(C(=O)NCC2(N3CCCCC3)CCCCC2)o1` as the compound, how does the GFP signal change (wild-type ribosome) read?
The GFP signal change (wild-type ribosome) was inactive: 4.46%.

Which GFP signal change (wild-type ribosome) does the source give for `CCC(c1nnnn1C1CCCCC1)N1CCC(n2c(=O)[nH]c3ccccc32)CC1` (stereo not drawn) here?
Its GFP signal change (wild-type ribosome) is inactive: -28.3%.

For `CC(=O)N(c1ccccc1)C1CCNCC1`, which GFP signal change (wild-type ribosome) is on record?
Its GFP signal change (wild-type ribosome) is inactive: 10.7%.

With `COc1cccc(C(c2nnnn2C2CCCCC2)N2CCC(n3c(=O)[nH]c4ccccc43)CC2)c1OC` (stereo not drawn) as the compound, how does the GFP signal change (wild-type ribosome) read?
Its GFP signal change (wild-type ribosome) is inactive: 12.7%.

For `O=c1[nH]c2ccccc2n1C1CCN(C(c2ccnc3ccccc23)c2nnnn2C2CCCCC2)CC1` (stereo not drawn), which GFP signal change (wild-type ribosome) is on record?
The GFP signal change (wild-type ribosome) was inactive: 8.69%.

Which GFP signal change (wild-type ribosome) does the source give for `COc1cc(OC)cc(C(=O)NCC2(N3CCCCC3)CCCCC2)c1` here?
The GFP signal change (wild-type ribosome) was inactive: 4.08%.

For `Cn1c(=O)[nH]cc(N(CCCl)CCCl)c1=O`, which GFP signal change (wild-type ribosome) is on record?
The GFP signal change (wild-type ribosome) was inactive: 28.6%.

For `CN(C)c1ccc(C(=O)NCC2(N3CCCCC3)CCCCC2)cc1`, which GFP signal change (wild-type ribosome) is on record?
The GFP signal change (wild-type ribosome) was inactive: 6.28%.

Which GFP signal change (wild-type ribosome) does the source give for `O=C(NCC1(N2CCCCC2)CCCCC1)c1ccco1` here?
Its GFP signal change (wild-type ribosome) is inactive: 3.85%.

With `CC(C)(C)n1nnnc1C(c1ccnc2ccccc12)N1CCC(n2c(=O)[nH]c3ccccc32)CC1` (stereo not drawn) as the compound, how does the GFP signal change (wild-type ribosome) read?
Its GFP signal change (wild-type ribosome) is inactive: -25.4%.

For `COc1ccc(C(c2nnnn2C2CCCCC2)N2CCC(n3c(=O)[nH]c4ccccc43)CC2)cc1` (stereo not drawn), which GFP signal change (wild-type ribosome) is on record?
Its GFP signal change (wild-type ribosome) is inactive: 2.08%.

With `Cc1ccccc1NC1(C#N)CCN(Cc2ccccc2)CC1` as the compound, how does the GFP signal change (wild-type ribosome) read?
The GFP signal change (wild-type ribosome) was inactive: 14.6%.

Reference: PubChem BioAssay AID720706 (Broad Institute, 2013)
